Compound potency records, mixed from different reports. Data source: NIAID ChemDB in PubChem.

All rows: tests in culture; organism: Cowpox virus; endpoint: EC50

Rows are shuffled and stem from different studies. ECn: concentration that inhibits the pathogen or its effect by n%.

Nc1nc(NCC(F)(F)F)c2ncn(CCOCP(=O)(O)O)c2n1 ; cell line: HFF ; strain: Brighton ; result: >270 µM
Nc1ccn([C@H]2CC[C@@H](CO)O2)c(=O)n1 ; cell line: VERO ; result: >474 µM
Nc1ccn(C[C@@H](CO)OCP(=O)(O)O)c(=O)n1 ; cell line: VERO 76 ; result: 92 µM
Nc1nc2c(ncn2COCCOP2(=O)OCc3ccccc3O2)c(=O)[nH]1 ; cell line: VERO 76 ; result: >99 µg/mL
Nc1ccn(C[C@@H](CO)OCP(=O)(O)O)c(=O)n1 ; cell line: VERO 76 ; strain: Brighton strain wild type ; result: 45 µM
Cc1cccc2c1OP(=O)(OCCOCn1cnc3c(=O)[nH]c(N)nc31)OC2 ; cell line: VERO 76 ; result: >99 µg/mL
O=c1[nH]cnc2c1ncn2[C@H]1CC[C@@H](CO)O1 ; cell line: VERO ; result: >423 µM
NC(=O)c1ncn([C@@H]2O[C@H](CO)[C@@H](O)[C@H]2O)n1 ; cell line: VERO 76 ; strain: Brighton strain wild type ; result: 625 µM
Cc1cn([C@H]2C=C[C@@H](CO)O2)c(=O)[nH]c1=O ; cell line: HFF ; result: >446 µM
Nc1ccn(C[C@@H](CO)OCP(=O)(O)O)c(=O)n1 ; cell line: VERO ; result: 62 µM
O=c1[nH]cnc2c1ncn2[C@H]1CC[C@@H](CO)O1 ; cell line: HFF ; result: >300 µM
Nc1ncnc2c1ncn2C[C@@H](CO)OCP(=O)(O)O ; cell line: VERO 76 ; strain: Brighton strain wild type ; result: 4.2 µM
Cc1cn([C@H]2C[C@H](N=[N+]=[N-])[C@@H](CO)O2)c(=O)[nH]c1=O ; cell line: HFF ; result: >300 µM
Cc1cn([C@H]2C[C@H](N=[N+]=[N-])[C@@H](CO)O2)c(=O)[nH]c1=O ; cell line: HFF ; result: >374 µM
Nc1ncnc2c1ncn2C[C@@H](CO)OCP(=O)(O)O ; cell line: HEL ; strain: Brighton ; result: 0.23 µg/mL
Nc1ccn([C@@H]2CS[C@H](CO)O2)c(=O)n1 ; cell line: HFF ; result: >436 µM
COc1c(C)c2c(c(O)c1C/C=C(\C)CCC(=O)O)C(=O)OC2 ; cell line: VERO 76 ; result: 3 µM
Nc1nc(NC2CC2)c2ncn([C@H]3C=C[C@@H](CO)C3)c2n1 ; cell line: HFF ; result: >300 µM
NC(=O)c1ncn([C@@H]2O[C@H](CO)[C@@H](O)[C@H]2O)n1 ; cell line: VERO ; result: >246 µM

Repeating the first 2 entries:

{"smiles": "Nc1nc(NCC(F)(F)F)c2ncn(CCOCP(=O)(O)O)c2n1", "cell line": "HFF", "strain": "Brighton", "result": ">270 µM"}
{"smiles": "Nc1ccn([C@H]2CC[C@@H](CO)O2)c(=O)n1", "cell line": "VERO", "result": ">474 µM"}